PubChem BioAssay AID1224833 | University of Georgia | 2016

Screen: 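Host factors restraining rotavirus as candidate antiviral genes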 (primary screen)
Cell system: monkey MA104 kidney cells
Reagent: siRNA pool against human genes, 50 nM
Timing: 48 h knock-down before infection; read 24 h after infection
Conditions: infection with rotavirus strain RV3 two days after transfection; infectious dose for this stage not given
Read-out: 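z-score of rotavirus antigen signal per well, from a fluorescent immunoassay, relative to non-targeting control wells on the same plate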
Scale: z-score vs non-targeting control: higher = more rotavirus replication than with non-targeting control
Rule for the call: In these data the active calls have z-score vs non-targeting control at about -1 or lower, or at about 1 or higher
Calls: active = z-score beyond 1 either way; inactive = z-score within 1 of zero
The deposit covers about 12,000 reagents; shown is a random part of them. Over the whole deposit, about 5,600 (46%) got an active call. 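Active calls cover z-scores past 1 in both directions, so they include lowered as well as raised rotavirus replication.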

z-score vs non-targeting control	call	Gene	PubChem SID
-2.3	active	TEF	SID329575604
-0.724	inactive	PUS1	SID329581214
0.218	inactive	ANP32E	SID329581330
-1.12	active	MOAP1	SID329580572
-0.842	inactive	OR2F1	SID329578344
0.624	inactive	CASP9	SID329573015
-2.62	active	FOXN3	SID329573158
-2.89	active	CDA	SID329573097
-0.0312	inactive	AMY1C	SID329572763
-1.31	active	DNAJC25-GNG10	SID329584664
1.6	active	CCNB2	SID329576440
-1.42	active	EFCAB7	SID329581627
-0.607	inactive	DCAKD	SID329581056
-2.28	active	SDC2	SID329575276
-3.06	active	GPM6B	SID329573824
-0.516	inactive	CYP4B1	SID329573345
0.968	inactive	WSCD1	SID329577927
1.22	active	IL2	SID329574131
-2.44	active	PLGRKT	SID329579902
0.229	inactive	DNAL1	SID329581404
0.318	inactive	SP100	SID329575451
-1.61	active	SYT17	SID329579200
0.276	inactive	OR13C9	SID329583980
0.821	inactive	ZFPL1	SID329575845
-1.82	active	GPAT2	SID329583027
1.13	active	RSPH9	SID329583587
-1.39	active	CST11	SID329582833
-0.713	inactive	SPRR2B	SID329575470
-1.11	active	TMEM132B	SID329582226
0.0386	inactive	MAGEA2	SID329574369
0.466	inactive	TMEM214	SID329579436
-0.0267	inactive	ATAD3B	SID329581459
-0.519	inactive	MMP11	SID329574465
0.178	inactive	TNFSF10	SID329576270
0.421	inactive	IFNA13	SID329574102
1.03	active	WDR7	SID329577944
-0.837	inactive	RAB21	SID329577762
-1.8	active	LRP2	SID329574328
-2.17	active	RPGRIP1	SID329580156
2.21	active	ZNF18	SID329575859
-0.132	inactive	CXCL12	SID329575279
-0.706	inactive	SNRNP70	SID329575415
-0.504	inactive	DPYD	SID329573441
-1.54	active	MRPL21	SID329583532
-0.946	inactive	GPRC5D	SID329579731
1.4	active	PDHB	SID329574789
0.0074	inactive	FRMD6	SID329582451
1.19	active	VPS37B	SID329580975
1.84	active	RAMP2	SID329577066
1.2	active	DHX58	SID329580841
0.527	inactive	HAPLN2	SID329580471
0.528	inactive	SCRT2	SID329581877
2.17	active	C1orf56	SID329579493
-0.601	inactive	CLDN14	SID329578064
-1.08	active	OMG	SID329574699
0.0638	inactive	APOL2	SID329578137
-0.348	inactive	DSN1	SID329581105
1.28	active	PIGR	SID329574834
-0.765	inactive	ANGPT4	SID329579046
0.568	inactive	ACTL7B	SID329577403
-1.1	active	TTC38	SID329579525
1.3	active	ZC3H14	SID329581057
1.32	active	PAPOLG	SID329580712
-1.3	active	OTP	SID329577996
0.743	inactive	CDYL2	SID329582484
-1.49	active	C9orf152	SID329584500
-0.699	inactive	TOGARAM2	SID329583264
0.828	inactive	GGT7	SID329573758
0.494	inactive	PRR14	SID329580791
-1.08	active	BCAN	SID329580500
-1.56	active	GTF2A1	SID329573886
-0.854	inactive	SORL1	SID329575435
-0.81	inactive	PDPR	SID329579548
-0.589	inactive	GMFB	SID329573785
-0.962	inactive	MYOD1	SID329574540
0.25	inactive	GPANK1	SID329575968
-1.48	active	SALL1	SID329575242
-1.22	active	RUVBL1	SID329576191
0.414	inactive	ADD2	SID329572694
-1.76	active	ELMOD2	SID329583725
-0.481	inactive	CATSPERE	SID329583758
0.318	inactive	ZNF227	SID329575933
-1.73	active	GPR107	SID329580371
-0.365	inactive	CPNE4	SID329582671
-1.73	active	MROH8	SID329582809
-0.871	inactive	GART	SID329573721
-0.0317	inactive	ZNF609	SID329577786
-2.26	active	ARHGAP6	SID329572817
-0.943	inactive	ITGA11	SID329577657
1.48	active	NBR1	SID329574355
-0.154	inactive	KIN	SID329577742
-0.776	inactive	RRBP1	SID329575208
-1.64	active	EXOC3L2	SID329581943
-1.01	active	RNASE7	SID329581688
-0.423	inactive	ARID5B	SID329581533
-0.64	inactive	MRGPRX4	SID329582346
-0.0416	inactive	GLT6D1	SID329584215
-0.39	inactive	DST	SID329572938
-1.36	active	CIART	SID329582979
0.38	inactive	MAP1LC3B	SID329581342
-0.321	inactive	EGFL7	SID329578944
-1.12	active	INO80C	SID329582514
0.398	inactive	GAS8-AS1	SID329572973
0.385	inactive	MORN5	SID329583713
1.19	active	APBB1IP	SID329579306
-2.57	active	AKAP5	SID329576622
-1.16	active	OR56A3	SID329584386
-2.19	active	PACSIN2	SID329577616
-0.9	inactive	MAZ	SID329574397
-0.933	inactive	FSTL1	SID329577576

Copied from the listing, 13 entries:
z-score vs non-targeting control	call	Gene	PubChem SID
-0.348	inactive	DSN1	SID329581105
1.28	active	PIGR	SID329574834
-0.765	inactive	ANGPT4	SID329579046
0.568	inactive	ACTL7B	SID329577403
-1.1	active	TTC38	SID329579525
1.3	active	ZC3H14	SID329581057
1.32	active	PAPOLG	SID329580712
-1.3	active	OTP	SID329577996
0.743	inactive	CDYL2	SID329582484
-1.49	active	C9orf152	SID329584500
-0.699	inactive	TOGARAM2	SID329583264
0.828	inactive	GGT7	SID329573758
0.494	inactive	PRR14	SID329580791
